A mixed list of measured activities; the numbers were collected in NIAID ChemDB.

Shared fields: tests in culture

MIC50, MIC90 and the like: level of inhibition, or share of isolates inhibited. Conditions beyond the fields shown may differ between rows.

smiles	organism	strain or isolate	read-out	value
N#Cc1ccc(N2CCN(c3ccc(N4C[C@H](COc5ccncn5)OC4=O)cc3F)CC2)nc1	Staphylococcus aureus	122 (novobiocin-resistant)	MIC	16 µg/mL
CC(=O)NC[C@H]1CN(c2ccc(-c3cnn(Cc4ccccc4)c3)c(F)c2)C(=O)O1	Staphylococcus epidermidis	UC12084 (methicillin-resistant)	MIC	2 µg/mL
COc1ccc(-c2ccc(N3CC(CNC(C)=O)CC3=O)cc2)ccc1=O	Staphylococcus epidermidis	UC12084	MIC	>64 µg/mL
CCCCCCCCCCCCOC[N+](C)(C)CCCCCCCC	Staphylococcus aureus	ATCC33592	MBC	25.5 µM
CS(=O)(=O)N[C@H]1CCN(c2ccc(N3C[C@H](COc4ccon4)OC3=O)cc2F)C1	Staphylococcus aureus	122 (novobiocin-resistant)	MIC	4 µg/mL
CCCCCCCCCCCC[N+](C)(C)COCC	Staphylococcus aureus	ATCC 6538	MBC	9.76 µM
CNC(=O)N[C@H]1CCN(c2ccc(N3C[C@H](CNc4ccon4)OC3=O)cc2F)C1	Staphylococcus aureus	078 (oxford)	MIC	0.25 µg/mL
CCCCCCCCCCCC[N+](C)(C)COCC(C)C	Staphylococcus aureus	ATCC33592	MBC	29.8 µM
CC(=O)NC[C@H]1CN(c2ccc(-c3ccn[nH]3)c(F)c2)C(=O)O1	Staphylococcus epidermidis	UC12084 (methicillin-resistant)	MIC	1 µg/mL
O=C1O[C@@H](CNc2ccon2)CN1c1ccc(N2CCOCC2)c(F)c1	Staphylococcus aureus	122 (novobiocin-resistant)	MIC	1 µg/mL
O=C(O)NC[C@H]1CC(c2cc(F)c(N3CCN(C(=O)CO)CC3)c(F)c2)=NO1	Staphylococcus epidermidis	UC12084	MIC	0.5 µg/mL
CCCCCCCCCCCC[N+](C)(C)COC(C)CCCCCC	Staphylococcus aureus	ATCC33592	MIC	1.53 µM
COC(=O)N1CC=C(c2ccc(C3=NO[C@@H](CNC(=O)O)C3)cc2)CC1	Staphylococcus epidermidis	UC12084	MIC	1 µg/mL
C=CC(=O)NC[C@H]1CN(c2ccc(C3CCS(=O)(=O)CC3)c(F)c2)C(=O)O1	Staphylococcus epidermidis	UC12084	MIC	0.5 µg/mL
N#Cc1ccc(N2CCN(c3ccc(N4C[C@H](COc5cnccn5)OC4=O)cc3F)CC2)nn1	Staphylococcus aureus	122 (novobiocin-resistant)	MIC	2 µg/mL
Cc1c(N)c(F)cc2c(=O)c(C(=O)O)cn(-c3cc(N)c(F)cc3F)c12	Staphylococcus aureus	27 isolates	MIC50	0.008 µg/mL
CCCCCCCCCCCC[N+](C)(C)COCCC(C)CCCC(C)C	Staphylococcus aureus	ATCC33592	MBC	23.8 µM
COC(=O)n1ccc(-c2ccc(N3C[C@H](CNC(C)=O)OC3=O)cc2F)n1	Staphylococcus epidermidis	UC12084 (methicillin-resistant)	MIC	2 µg/mL
Nc1cn(-c2ccc(N3C[C@H](COc4ccccn4)OC3=O)cc2F)cn1	Staphylococcus aureus	078 (oxford)	MIC	2 µg/mL
CC(=O)NC[C@H]1CN(c2ccc(C3CCS(=O)(=O)CC3)c(F)c2)C(=O)O1	Staphylococcus epidermidis	UC12084	MIC	0.5 µg/mL
CC(=O)NC[C@H]1CN(c2ccc(-c3ccn(C(C)=O)n3)c(F)c2)C(=O)O1	Staphylococcus epidermidis	UC12084 (methicillin-resistant)	MIC	2 µg/mL
CCCCCCCC[N+](C)(C)COC(C)CCC	Staphylococcus aureus	ATCC 6538	MBC	17 µM
O=C1O[C@@H](CNc2ccon2)CN1c1ccc(-n2ccnc2)c(F)c1	Staphylococcus aureus	122 (novobiocin-resistant)	MIC	0.25 µg/mL
CCCCCCCCCCSC[N+](C)(C)CCCCCCCC	Staphylococcus aureus	ATCC33592	MBC	26.3 µM
O=C1O[C@@H](COc2ccon2)CN1c1ccc(-n2cnc(CO)c2)c(F)c1	Staphylococcus aureus	078 (oxford)	MIC	2 µg/mL
CC(=O)NC[C@H]1CN(c2ccc(-c3cc(CO)on3)c(F)c2)C(=O)O1	Staphylococcus epidermidis	UC12084 (methicillin-resistant)	MIC	≤0.5 µg/mL

2 of the rows above, restated:

smiles | organism | strain or isolate | read-out | value
COc1ccc(-c2ccc(N3CC(CNC(C)=O)CC3=O)cc2)ccc1=O | Staphylococcus epidermidis | UC12084 | MIC | >64 µg/mL
O=C(O)NC[C@H]1CC(c2cc(F)c(N3CCN(C(=O)CO)CC3)c(F)c2)=NO1 | Staphylococcus epidermidis | UC12084 | MIC | 0.5 µg/mL